The values below are quoted from earlier work in patent US9745266B2 (THE REGENTS OF THE UNIVERSITY OF COLORADO, A BODY CORPORATE, priority 2013, dated 2017).

In this series the test system is S. aureus. The following applies: CLSI Performance Standards for Antimicrobial Testing; cited from earlier work.
As for `CC[C@H]1OC(=O)[C@H](C)[C@@H](O[C@H]2C[C@@](C)(OC)[C@@H](O)[C@H](C)O2)[C@H](C)[C@@H](O[C@@H]2O[C@H](C)C[C@H](N(C)C)[C@H]2O)[C@](C)(O)C[C@@H](C)C(=O)[C@H](C)[C@@H](O)[C@]1(C)O` [erythromycin], the sensitive range entry was “≦0.5 μg/ml”. Take `C[C@@H](O)[C@H]1C(=O)N2C(C(=O)O)=C(S[C@@H]3CN[C@H](C(=O)N(C)C)C3)[C@H](C)[C@H]12` [meropenem]: the sensitive range result is reported as “≦4 μg/ml”.

In the case of `Cc1onc(-c2ccccc2)c1C(=O)N[C@@H]1C(=O)N2[C@@H]1SC(C)(C)[C@@H]2C(=O)O` [oxacillin], the sensitive range result is listed as “≦2 μg/ml”.
